Results on 7 compounds are retold here after ChEMBL document CHEMBL1144867, “Antiviral amphipathic oligo- and polyribonucleotides: analogue development and biological studies” (J Med Chem, 2003).

Structures are written as SMILES. pEC50, pIC50: −log10 of the molar value.

As a reminder, the pIC50 is −log10 of the IC50, conventionally taken in molar units. Low values mean a high IC50, high ones a low IC50. The pEC50 is −log10 of the EC50, conventionally taken in molar units.

For assay [1], the target named is Human immunodeficiency virus type 1 reverse transcriptase (Human immunodeficiency virus 1, UniProt Q72547).
A further assay relates to CCRF-CEM. The assay is described as follows: Inhibitory activity against HIV in CEM-SS cells.

`C=CCn1cnc2c(ncn2[C@@H]2O[C@H](COC)[C@@H](OP(C)(=O)O)[C@H]2OC)c1=O` showed a pIC50 in assay [1] of 4.30. This compound showed a pEC50 in the assay on CCRF-CEM of 6.49.
With `CCCn1cnc2c(ncn2[C@@H]2O[C@H](COC)[C@@H](OP(C)(=O)O)[C@H]2OC)c1=O`, the pIC50 in assay [1] was 5.17. In the assay on CCRF-CEM, this compound showed a negative logarithm of the EC50 (pEC50) of 5.30.
Taken in the same sequence, the figures for `CCCn1cnc2c(ncn2[C@@H]2O[C@H](COC)[C@@H](OP(C)(=O)O)[C@H]2OC)c1=S` were 6.09 and 6.85.
The corresponding values for `C#CCn1cnc2c(ncn2[C@@H]2O[C@H](COC)[C@@H](OP(C)(=O)O)[C@H]2OC)c1=O` are 6.82 and 6.59.
The corresponding values for `C=CCn1cnc2c(ncn2[C@@H]2O[C@H](COC)[C@@H](OP(C)(O)=S)[C@H]2OC)c1=O` (some centres undefined) are 7.41 and 6.21.
In turn, `C=CCn1cnc2c(ncn2[C@@H]2O[C@H](COC)[C@@H](OP(C)(=O)O)[C@H]2O)c1=O` showed a negative logarithm of the IC50 (pIC50) in assay [1] of 5.02. Besides, in the assay on CCRF-CEM, the pEC50 was 6.03.
Taken in the same sequence, the figures for `C#CCn1cnc2c(ncn2[C@@H]2O[C@H](COC)[C@@H](OP(C)(=O)O)[C@H]2O)c1=O` were 7.65 and 6.89.
